Source: PubChem BioAssay AID504761 (Drosophila RNAi Screening Center, 2011)
The deposit covers about 22,000 reagents; shown is a random part of those with a known target gene and a result. In the full data, 116 (0.52%) were called active. 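Calls depend on retest data that are not deposited; infection was ranked per plate without normalising between plates; the unit of the infection score is not given.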 The raw values are shown without normalisation. Entries without a mark were called inactive. The numbers tell different reagents against one gene apart. Names joined by + are all predicted targets of the reagent. Further read-outs or replicates are left out here. Not stated in the record: the amount of reagent, the time to read-out.

Aim: 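Fly genes whose silencing reduces dengue virus type 2 infection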 (primary screen)
System: D.Mel-2 cells from Drosophila
Reagents: long dsRNA against Drosophila genes
Treatment: infection with dengue virus type 2; dose and infection time not stated
Detection: 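Cells stained for dengue envelope protein and imaged; percent of infected cells per well on duplicate plates, ranked by infection, with stained nuclei counted for cell number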
Scale: infection score: higher = more virus-infected cells; cell count: higher = more cells in the well
Active means: 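Very low infection ranking in both replicate wells (chance probability at most 0.065), then a retest showing infection dropped 1.5-fold or more at p below 0.05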
Meaning of the calls: active = confirmed: knock-down lowers infection; inactive = not picked or not confirmed

Against Xxylt the deposit lists infection score, replicate 1 = 22.5; cell count, replicate 1 = 6171.
For CG18809 #1 the deposit lists infection score, replicate 1 = 2.56; cell count, replicate 1 = 4727.
After knock-down of CG18809 #2, the record shows infection score, replicate 1 = 3.41; cell count, replicate 1 = 7127.
Bfc scored infection score, replicate 1 = 11.1; cell count, replicate 1 = 5598.
CG6125 gave infection score, replicate 1 = 3.36; cell count, replicate 1 = 6398.
Knock-down of CG13280 came out at: infection score, replicate 1 = 4.62; cell count, replicate 1 = 6737.
Silencing of His1:CG33816 + His1:CG33828 + His1:CG33819 + 21 more gave: infection score, replicate 1 = 1.28; cell count, replicate 1 = 5465.
CG7878 #1 showed infection score, replicate 1 = 1.48; cell count, replicate 1 = 6957.
CG7878 #2 gave infection score, replicate 1 = 7.49; cell count, replicate 1 = 6692.
After knock-down of cn, the record shows infection score, replicate 1 = 8.83; cell count, replicate 1 = 6095.

An excerpt from above, reduced to “cell count, replicate 1”:
CG7878 #2: 6692
cn: 6095

More records follow.
Against betaTub56D #1, the values are infection score, replicate 1 = 6.37; cell count, replicate 1 = 1130.
betaTub56D #2 scored infection score, replicate 1 = 18.7; cell count, replicate 1 = 710.
Against CG8478 the deposit lists infection score, replicate 1 = 3.57; cell count, replicate 1 = 6865.
Against Son the deposit lists infection score, replicate 1 = 2.62; cell count, replicate 1 = 6022.
With knock-down of Rga #1, the record shows infection score, replicate 1 = 6.15; cell count, replicate 1 = 4454.
For Rga #2, the entry reads infection score, replicate 1 = 10.4; cell count, replicate 1 = 5989.
After knock-down of Or98b #1 the results were infection score, replicate 1 = 6.98; cell count, replicate 1 = 6248.
After knock-down of Or98b #2 the results were infection score, replicate 1 = 5.22; cell count, replicate 1 = 6318.
After knock-down of CG32679, the record shows infection score, replicate 1 = 7.62; cell count, replicate 1 = 4395.
Against CG7069, the values are infection score, replicate 1 = 6; cell count, replicate 1 = 6403.
With knock-down of Nle, the record shows infection score, replicate 1 = 6.86; cell count, replicate 1 = 6573.
